Pooled drug test results. Numbers come from NIAID ChemDB, via PubChem.

Common to all: growth or infection tests; organism: Varicella zoster virus; endpoint: EC50

An empty or dashed field is not shown.

smiles	strain	cells	method	value
Nc1nc(N)c2ncn(C[C@H]3CC[C@@H](CO)C3)c2n1	07/1 (TK-)	HEL	plaque count	>50 µg/mL
C[C@H](Cn1cnc2c(N)ncnc21)OCP(=O)(O)O	OKA		cytopathic effect	≥350 µM
C[C@H]1C[C@@H](n2cnc3c(N)ncnc32)[C@H](O)[C@@H]1O	YS/R (TK-)	HEL	cytopathic effect	4 µg/mL
Nc1nc2c(ncn2C=C2CC2CO)c(=O)[nH]1			plaque count	10–100 µM
Nc1nc(N)c2nnn(C[C@H]3CC[C@@H](CO)C3)c2n1	YS/R (TK-)	HEL	plaque count	40 µg/mL
Nc1nc2c(ncn2[C@@H]2C=C[C@H](CO)CC2)c(=O)[nH]1	YS/R (TK-)	HEL	plaque count	2.8 µg/mL
O=c1[nH]c(=O)n([C@H]2C[C@H](O)[C@@H](CO)O2)cc1/C=C/Br	YS/R (TK-)	HEL	plaque count	20 µg/mL
O=C(O)P(=O)(O)O	PMEDAP-resistant	HEL	plaque count	42.4 µg/mL
Nc1nc2c(ncn2[C@H]2C=C[C@@H](CO)CC2)c(=O)[nH]1	YS/R (TK-)	HEL	plaque count	6.8 µg/mL
Nc1ncnc2c1ncn2C[C@@H](CO)OCP(=O)(O)O	YS		cytopathic effect	0.07 µM
Nc1ncnc2c1ncn2CCOCP(=O)(O)O	Oka PFA-resistant/B	HEL	cytopathic effect	79.8 µM
Nc1nc(Cl)c2nnn(C[C@H]3CC[C@@H](CO)C3)c2n1	07/1 (TK-)	HEL	plaque count	>50 µg/mL
Nc1ncnc2c1ncn2C[C@@H](CO)OCP(=O)(O)O	BVDU-resistant	HEL	plaque count	0.026 µg/mL
Nc1ncnc2c1ncn2[C@@H]1O[C@H](CO)[C@H]1CO	YS (TK+)	HEL	plaque count	5.6 µM
Nc1nc2c(nnn2C[C@H]2CC[C@@H](CO)C2)c(=O)[nH]1	YS	HEL	plaque count	>200 µg/mL
Nc1ncc2c(ncn2COC(CO)CO)n1	YS/R (TK-)	HEL	plaque count	0.36 µM
Nc1ncnc2c1ncn2CCOCP(=O)(O)O	YS		cytopathic effect	38 µM
Nc1nc(N)c2ncn(CCOCP(=O)(O)O)c2n1	PFA-resistant/B	HEL	plaque count	4.1 µg/mL
O=c1[nH]c(=O)n([C@H]2C[C@H](O)[C@@H](CO)O2)cc1-c1ccc(Cl)s1	13 isolates	HEL	plaque count	0.25 µM
O=c1[nH]c(=O)n([C@@H]2O[C@H](CO)[C@@H](O)[C@@H]2O)cc1/C=C/Br	PCV-resistant/B	HEL	plaque count	0.00019 µg/mL
Nc1nccc2c1ncn2C[C@@H](CO)OCP(=O)(O)O	YS/R (TK-)	HEL	plaque count	0.06 µM

For reference, 2 entries again:

smiles,strain,cells,method,value
O=c1[nH]c(=O)n([C@@H]2O[C@H](CO)[C@@H](O)[C@@H]2O)cc1/C=C/Br,PCV-resistant/B,HEL,plaque count,0.00019 µg/mL
C[C@H](Cn1cnc2c(N)ncnc21)OCP(=O)(O)O,OKA,,cytopathic effect,≥350 µM

Two numbers with a dash give a range or band. Neighbouring rows are from separate reports. ECn is the concentration giving n% inhibition of infection, replication or growth.